Results of unrelated studies side by side (data: NIAID ChemDB).

Common to all: growth or infection tests; agent: HIV-1; cell line: MT-4; endpoint: EC50

Blank or dashed fields: not listed here. Lines come from different laboratories, so protocols vary. ECn is the concentration giving n% inhibition of infection, replication or growth.

SMILES	strain or isolate	changes	method	result
CN(C)c1ccc(-n2nnnc2SCC(=O)Nc2ccccc2Cl)c2ccccc12			p24	<10 µM
O=C1c2ccccc2C(=O)N1CCOC(=S)N(C(=O)c1cccs1)c1ccc(Cl)cc1	A17	RT-K103N Y181C	cytopathic effect / MTT	>100 µM
Cc1ccnc2c1NC(=O)c1cccnc1N2C1CC1	92UG021 (subtype D)		MTT	0.08 µg/mL
O=C(N[C@H]1c2ccccc2OC[C@H]1O)[C@H](Cc1cccnc1)C[C@H](O)CN1CCN(Cc2ccn(-c3cccc(F)c3)c2)C[C@H]1C(=O)NCC(F)(F)F	Q-60C Clinical isolate	PR-L10I N37S R41K M46I I54V I62V L63P A71V V77I V82A L90M I93L	p24	<0.015 µM
O=c1[nH]cnc2c1ncn2[C@H]1CC[C@@H](CO)O1	A17		p24	<6.25 µM
O=C(N[C@H]1c2ccccc2OC[C@H]1O)[C@H](Cc1cccnc1)C[C@H](O)CN1CCN(Cc2ccn(-c3ccc(Cl)c(Cl)c3)c2)C[C@H]1C(=O)NCC(F)(F)F	V-18C Clinical isolate	PR-L10I M36I N37D M46I R57K L63P A71V G73S I84V L90M I93L	p24	<0.015 µM
Cc1cc(C#Cc2ccccc2)cc(C)c1Oc1ccnc(Nc2ccc(C#N)cc2)n1	IIIB	K103N	MTT	0.125 µM
CCc1cc(NCc2nc3c(C)ccc(C)c3o2)c(=O)[nH]c1C	rHXB2		p24	<0.05 µM
N#Cc1cccc(-n2ccc(CN3CCN(C[C@@H](O)C[C@@H](Cc4cccnc4)C(=O)N[C@H]4c5ccccc5OC[C@H]4O)[C@H](C(=O)NCC(F)(F)F)C3)c2)c1	NL4-3 WT		p24	<0.062 µM
CC(C)Nc1cccnc1N1CCN(C(=O)c2cc3cc(NS(C)(=O)=O)ccc3[nH]2)CC1	MF		antigen	~0.05 µM
CC(C)(C)NC(=O)[C@@H]1C[C@@H]2CCCC[C@@H]2CN1C[C@@H](O)[C@H](Cc1ccccc1)NC(=O)[C@H](CC(N)=O)NC(=O)c1ccc2ccccc2n1	NL4-3	PR-L63P	p24	<0.05 µM
O=C(N[C@H]1c2ccccc2OC[C@H]1O)[C@H](Cc1cccnc1)C[C@H](O)CN1CCN(Cc2ccn(-c3ccccc3)c2)C[C@H]1C(=O)NCC(F)(F)F	NL4-3 WT		p24	<0.015 µM
Cc1cn([C@H]2C[C@H](N=[N+]=[N-])[C@@H](CO)O2)c(=O)[nH]c1=O	HXB2D (RT-M184V)	RT-M184V	p24	0.015 µM
O=C1c2ccccc2C(=O)N1CCOC(=S)N(C(=O)c1ccccc1)c1ccccc1	A17	RT-K103N Y181C	cytopathic effect / MTT	>100 µM
Cc1cc(C#Cc2cccnc2)cc(C)c1Oc1ccnc(Nc2ccc(C#N)cc2)n1	IIIB	Y181C	MTT	0.065 µM
COc1ccc(NC(=O)CSc2nnnn2-c2c(C)cc(C)cc2C)c([N+](=O)[O-])c1			p24	<10 µM
Cc1cc(C#CC2CC2)cc(C)c1Oc1ccnc(Nc2ccc(C#N)cc2)n1	IIIB	E138K	MTT	0.046 µM
O=C1c2ccccc2C(=O)N1CCOC(=S)N(C(=O)c1ccco1)c1ccc(Cl)cc1	A17	RT-K103N Y181C	cytopathic effect / MTT	>100 µM
CC(=O)Oc1ccc(/C=C/C(=O)O[C@@H](C(=O)O)[C@@H](OC(=O)/C=C/c2ccc(OC(C)=O)c(OC(C)=O)c2)C(=O)O)cc1OC(C)=O	NL4-3	AMD3100-resistant	cytopathic effect / MTT	>74 µM
Cc1cn([C@H]2C[C@H](N=[N+]=[N-])[C@@H](CO)O2)c(=O)[nH]c1=O	BCF06 (subtype O)		MTT	0.0005 µg/mL
Cc1cc(C)c(-n2nnnc2SCC(=O)Nc2ccc(Cl)cc2[N+](=O)[O-])c(C)c1			p24	<10 µM
CCc1cc(NCc2nc3ccccc3o2)c(=O)[nH]c1C	A17		p24	<100 µM
O=C(CSc1nnnn1-c1cccc(Cl)c1Cl)Nc1ccccc1Cl			p24	<10 µM
O=C(N[C@H]1c2ccccc2OC[C@H]1O)[C@H](Cc1cccnc1)C[C@H](O)CN1CCN(Cc2ccn(-c3ccc(C(F)(F)F)cc3)c2)C[C@H]1C(=O)NCC(F)(F)F	K-60C Clinical isolate	PR-L10I M46I I54V Q58E L63P I64V V77I V82F I84V L90M I93L	p24	<0.015 µM
Cc1cc(C#Cc2cccc(N)c2)cc(C)c1Oc1ccnc(Nc2ccc(C#N)cc2)n1	IIIB	K103N	MTT	0.072 µM
O=C1c2ccccc2C(=O)N1CCOC(=S)N(C(=O)c1ccco1)c1ccc([N+](=O)[O-])cc1	N119 nevirapine-resistant (RT Y181C)	RT-Y181C	cytopathic effect / MTT	58 µM
Cc1cc(C#Cc2cccc(N)c2)cc(C)c1Oc1ccnc(NC2CCN(Cc3ccc(C#N)cc3)CC2)n1	IIIB	E138K	MTT	>0.261 µM
O=C1N(Cc2ccc(CO)cc2)[C@H](Cc2ccccc2)[C@H](O)[C@@H](O)[C@@H](Cc2ccccc2)N1Cc1ccc(CO)cc1	NL4-3	PR-L10R L63P V82T I84V	p24	<3 µM
Cc1cc(C#Cc2cccc(N)c2)cc(C)c1Oc1ccnc(NC2CCN(Cc3ccc(C(N)=O)cc3)CC2)n1	IIIB	L100I	MTT	>0.198 µM
Cc1ccc(-n2nnnc2SCC(=O)Nc2ccc(C)c([N+](=O)[O-])c2)cc1			p24	<10 µM
Cc1cc(/C=C/c2ccccc2)cc(C)c1Oc1ccnc(Nc2ccc(C#N)cc2)n1	IIIB		MTT	0.026 µM
Cc1ccccc1-n1ccc(CN2CCN(C[C@@H](O)C[C@@H](Cc3cccnc3)C(=O)N[C@H]3c4ccccc4OC[C@H]3O)[C@H](C(=O)NCC(F)(F)F)C2)c1	Q-60C Clinical isolate	PR-L10I N37S R41K M46I I54V I62V L63P A71V V77I V82A L90M I93L	p24	<0.031 µM
CC(C)Nc1cccnc1N1CCN(C(=O)c2cc3cc(NS(C)(=O)=O)ccc3[nH]2)CC1	IIIB	Y188L	MTT	0.542 µM
COc1cc([N+](=O)[O-])ccc1NC(=O)CSc1nnnn1-c1c(C)cc(C)cc1C			p24	<10 µM
Cc1cc(C#Cc2ccccn2)cc(C)c1Oc1ccnc(Nc2ccc(C#N)cc2)n1	IIIB	K103N	MTT	0.073 µM
O=C(CSc1nnnn1-c1cccc2ccccc12)Nc1ccc(Cl)cc1[N+](=O)[O-]			p24	<10 µM

For reference, 3 entries again:

SMILES,strain or isolate,changes,method,result
O=C(CSc1nnnn1-c1cccc(Cl)c1Cl)Nc1ccccc1Cl,,,p24,<10 µM
O=C1c2ccccc2C(=O)N1CCOC(=S)N(C(=O)c1ccccc1)c1ccccc1,A17,RT-K103N Y181C,cytopathic effect / MTT,>100 µM
O=C1c2ccccc2C(=O)N1CCOC(=S)N(C(=O)c1cccs1)c1ccc(Cl)cc1,A17,RT-K103N Y181C,cytopathic effect / MTT,>100 µM